Compound potency records, mixed from different reports. Data source: NIAID ChemDB in PubChem.

Common to all: tests in culture; agent: HIV-1; measure: EC50

Two numbers with a dash give a range or band. ECn: concentration that inhibits the pathogen or its effect by n%. Neighbouring rows are from separate reports.

CC(C)(C)OC(=O)c1cccc(Cn2ccc3ccc(-c4ccc5ccn(Cc6cccc(C(=O)O)c6)c5c4)cc32)c1 ; strain: HXB2 ; cells: TZM-bl + HL2/3 ; read by: cell fusion / luminescence ; value: 0.2 µM
Cc1cc(S(N)(=O)=O)ccc1NC(=O)COc1ccc(Cl)cc1C(=O)c1cccc(C#N)c1 ; strain: HXB2 ; changes: RT-Y181C ; cells: HeLa + HELA CD4+ ; read by: β-galactosidase ; value: <0.01 µM
O=S(=O)(c1cccc2cnccc12)N1CCNCC1 ; strain: IIIB ; cells: U-937 ; read by: p24 / ELISA ; value: >10.5 µg/mL
CCCCOc1c(OC)cc(C(=O)N2CCN(Cc3ccccc3)CC2COC(=O)N(CC)CC)cc1OC ; strain: BaL ; cells: MDM ; read by: RT activity ; value: >5 µM
Cc1cc(S(N)(=O)=O)ccc1NC(=O)COc1ccc(Cl)cc1C(=O)c1cc(F)cc(F)c1 ; strain: HXB2 ; changes: RT-Y188C ; cells: HeLa + HELA CD4+ ; read by: β-galactosidase ; value: <0.01 µM
CC(C)[C@H](NC(=O)[C@H](CO)NC(=O)[C@@H](N)CSSCC(=O)O)C(=O)N[C@H](C(=O)N[C@@H](CSSCC(=O)O)C(=O)NCC(=O)O)[C@@H](C)O ; strain: IIIB ; cells: PBMC(PHA STIM.) + PBMC ; read by: p24 ; value: <0.132 µM
COC(=O)c1cccc(Cn2ccc3ccc(-c4ccc5ccn(Cc6cccc(C(=O)O)c6)c5c4)cc32)c1 ; strain: HXB2 ; cells: TZM-bl + HL2/3 ; read by: luciferase / cell fusion ; setting: pseudotyped ; value: 0.25 µM
CC(C)C1=C2[C@H]3CC[C@@H]4[C@@]5(C)CC[C@H](OC(=O)[C@H]6C[C@@H](C(=O)O)C6(C)C)C(C)(C)[C@@H]5CC[C@@]4(C)[C@]3(C)CC[C@@]2([C@@H](O)CNC(=O)C2CCNCC2)CC1=O ; strain: 92HT599 ; cells: MT-2 ; read by: p24 / ELISA ; value: <1 µM
Cc1cc(-c2ccc(N=Nc3ccc4c(S(=O)(=O)O)cc(S(=O)(=O)O)c(N)c4c3O)c(C)c2)ccc1N=Nc1ccc2c(S(=O)(=O)O)cc(S(=O)(=O)O)c(N)c2c1O ; strain: HTLV-III/LAV ; cells: ATH8 ; read by: cytopathic effect ; value: <10 µg/mL
Cc1cc(C#N)cc(C(=O)c2cc(Cl)ccc2OCC(=O)Nc2ccc(S(N)(=O)=O)cc2C)c1 ; strain: HXB2 (RT-K103N Y181C) Recombinant ; changes: RT-K103N Y181C ; cells: HeLa + HELA CD4+ ; read by: β-galactosidase ; value: <0.01 µM
CCN(CC)C(=O)OCC1CN(C(=O)c2cc(OC)c(O)c(OC)c2)CCN1C(=O)c1cc(OC)c(OC)c(OC)c1 ; strain: BaL ; cells: MDM ; read by: RT activity ; value: <100 µM
Cc1cncc(C(=O)NC(C)(C)C(=O)NC[C@H](O)[C@@]23CC[C@]4(C)[C@H](CC[C@@H]5[C@@]6(C)CC[C@H](OC(=O)[C@H]7C[C@@H](C(=O)O)C7(C)C)C(C)(C)[C@@H]6CC[C@]54C)C2=C(C(C)C)C(=O)C3)n1 ; strain: 92HT599 ; cells: MT-2 ; read by: p24 / ELISA ; value: <1 µM
CC(=O)CCC(=O)NCCCOCCOCCCNC(=O)CNC(=O)[C@H](CS)NC(=O)[C@@H](NC(=O)[C@@H](NC(=O)[C@H](CO)NC(=O)[C@@H](N)CS)C(C)C)[C@@H](C)O ; strain: BaL ; cells: PBMC(PHA STIM.) + PBMC ; read by: p24 ; value: >1.32 µM
CC(C)C1=C2[C@H]3CC[C@@H]4[C@@]5(C)CC[C@H](OC(=O)[C@H]6C[C@@H](C(=O)O)C6(C)C)C(C)(C)[C@@H]5CC[C@@]4(C)[C@]3(C)CC[C@@]2(CC(=O)NC(CN)CNC(=O)c2ccc(Cl)cc2)CC1=O ; strain: 92HT599 ; cells: MT-2 ; read by: p24 / ELISA ; value: <1 µM
CCN(CC)C(=O)OCC1CNCCN1C(=O)c1cc(OC)c(OC)c(OC)c1 ; strain: BaL ; cells: MDM ; read by: RT activity ; value: >100 µM
Cc1cc(C#N)cc(C(=O)c2cc(Cl)ccc2OCC(=O)Nc2cnc(S(N)(=O)=O)cc2C)c1 ; strain: HXB2 ; changes: RT-V106I Y181C ; cells: HeLa + HELA CD4+ ; read by: β-galactosidase ; value: 0.011–0.1 µM
CCCCCCCCNCC(O)CCCCCCCCCn1c(=O)c2c(ncn2C)n(C)c1=O ; strain: LAV ; cells: U1(HIV-1 (LAV)) + U1 ; read by: p24 ; value: <5 µM
[N-]=[N+]=N[C@H]1C[C@H](n2cc(I)cnc2=O)O[C@@H]1CO ; cells: CEM-V + CEM ; value: >28 µM
CCN(CC)C(=O)OCC1CN(C(=O)c2ccc(OC)cc2OC)CCN1C(=O)c1ccc(OC)cc1OC ; strain: BaL ; cells: MDM ; read by: RT activity ; value: >100 µM
COc1cc(OC)c2c(=O)c3ccccc3n(C)c2c1 ; strain: IIIB ; cells: OM-10.1 ; read by: p24 / ELISA ; value: 3.2 µg/mL
CC(C)C1=C2[C@H]3CC[C@@H]4[C@@]5(C)CC[C@H](OC(=O)[C@H]6C[C@@H](C(=O)O)C6(C)C)C(C)(C)[C@@H]5CC[C@@]4(C)[C@]3(C)CC[C@@]2(CCNC(=O)CN2CCS(=O)(=O)CC2)CC1=O ; strain: 92HT599 ; cells: MT-2 ; read by: p24 / ELISA ; value: <1 µM
CN1N=C(N)c2cn([C@@H]3O[C@H](COP(=O)(O)O)[C@@H](O)[C@H]3O)c3ncnc1c23 ; strain: A17 ; changes: RT-K103N Y181C ; cells: CEM + CEM-SS ; read by: syncytia ; value: 0.0036 µM
CC(C)C1=C2[C@H]3CC[C@@H]4[C@@]5(C)CC[C@H](OC(=O)[C@H]6C[C@@H](C(=O)O)C6(C)C)C(C)(C)[C@@H]5CC[C@@]4(C)[C@]3(C)CC[C@@]2(CCNCC(C)(C)NC(=O)C2CCNCC2)CC1=O ; strain: 92HT599 ; cells: MT-2 ; read by: p24 / ELISA ; value: <1 µM
COc1cccc(CN(C)c2cccc(-c3ccc4ccn(Cc5cccc(C(=O)O)c5)c4c3)c2)c1 ; strain: HXB2 ; cells: TZM-bl + HL2/3 ; read by: cell fusion / luminescence ; value: 1.6 µM
CC(C)C1=C2[C@H]3CC[C@@H]4[C@@]5(C)CC[C@H](OC(=O)[C@H]6C[C@@H](C(=O)O)C6(C)C)C(C)(C)[C@@H]5CC[C@@]4(C)[C@]3(C)CC[C@@]2([C@@H](O)CNC(=O)c2ccc(N3CCS(=O)(=O)CC3)cc2)CC1=O ; strain: 92HT599 ; cells: MT-2 ; read by: p24 / ELISA ; value: <1 µM
Cc1cc(OCCCS(N)(=O)=O)ccc1NC(=O)COc1ccc(Cl)cc1C(=O)c1cc(F)cc(C(F)(F)F)c1 ; strain: HXB2 ; changes: RT-L100I ; cells: HeLa + HELA CD4+ ; read by: β-galactosidase ; value: <0.01 µM
CCN(CC)C(=O)OCC1CN(C(=O)c2ccncc2)CCN1C(=O)c1ccncc1 ; strain: BaL ; cells: MDM ; read by: RT activity ; value: >100 µM
CC(C)C1=C2[C@H]3CC[C@@H]4[C@@]5(C)CC[C@H](OC(=O)[C@H]6C[C@@H](C(=O)O)C6(C)C)C(C)(C)[C@@H]5CC[C@@]4(C)[C@]3(C)CC[C@@]2(CC(=O)NCC(C)(C)NC(=O)c2ccc(Cl)cc2OCCN(C)C)CC1=O ; strain: 92HT599 ; cells: MT-2 ; read by: p24 / ELISA ; value: <1 µM
Cc1cc(S(N)(=O)=O)ccc1NC(=O)COc1ccc(Cl)cc1C(=O)c1cc(F)cc(C#N)c1 ; strain: HXB2 ; changes: RT-V108I Y181C ; cells: HeLa + HELA CD4+ ; read by: β-galactosidase ; value: <0.01 µM
CC(C)C1=C2[C@H]3CC[C@@H]4[C@@]5(C)CC[C@H](OC(=O)[C@H]6C[C@@H](C(=O)O)C6(C)C)C(C)(C)[C@@H]5CC[C@@]4(C)[C@]3(C)CC[C@@]2(CCNC(=O)[C@@H]2CCCNC2)CC1=O ; strain: 92HT599 ; cells: MT-2 ; read by: p24 / ELISA ; value: <1 µM
Cc1cc(Cl)cc(C(=O)c2cc(Cl)ccc2OCC(=O)Nc2ccc(S(N)(=O)=O)cc2C)c1 ; strain: HXB2 ; changes: RT-V106I Y181C ; cells: HeLa + HELA CD4+ ; read by: β-galactosidase ; value: 0.011–0.1 µM
CC(C)C1=C2[C@H]3CC[C@@H]4[C@@]5(C)CC[C@H](OC(=O)[C@H]6C[C@@H](C(=O)O)C6(C)C)C(C)(C)[C@@H]5CC[C@@]4(C)[C@]3(C)CC[C@@]2(CCN(CCN(C)C)C(=O)c2ccccc2Cl)CC1=O ; strain: 92HT599 ; cells: MT-2 ; read by: p24 / ELISA ; value: <1 µM
Cn1c2ccccc2c(=O)c2c(O)cccc21 ; strain: IIIB ; cells: MOLT-4/IIIB + MOLT-4 ; read by: p24 / ELISA ; value: >2.07 µg/mL

2 of the rows above, restated:

CC(C)C1=C2[C@H]3CC[C@@H]4[C@@]5(C)CC[C@H](OC(=O)[C@H]6C[C@@H](C(=O)O)C6(C)C)C(C)(C)[C@@H]5CC[C@@]4(C)[C@]3(C)CC[C@@]2(CCNCC(C)(C)NC(=O)C2CCNCC2)CC1=O ; strain: 92HT599 ; cells: MT-2 ; read by: p24 / ELISA ; value: <1 µM
Cc1cc(C#N)cc(C(=O)c2cc(Cl)ccc2OCC(=O)Nc2cnc(S(N)(=O)=O)cc2C)c1 ; strain: HXB2 ; changes: RT-V106I Y181C ; cells: HeLa + HELA CD4+ ; read by: β-galactosidase ; value: 0.011–0.1 µM